Measured values from several laboratories, pooled; numbers as filed in NIAID ChemDB.

All rows: tests in culture; species: Coxsackie virus; endpoint: EC50

ECn is the concentration giving n% inhibition of infection, replication or growth. Neighbouring rows are from separate reports.

SMILES	cell line	strain	method	value
Nc1nc(N)c2nnn(C[C@H]3CC[C@@H](CO)C3)c2n1	VERO	TYPE B4	cytopathic effect	>100 µg/mL
Nc1ncnc2c1ncn2[C@@H]1C=C(CO)[C@@H](O)[C@H]1O	VERO	TYPE B4	cytopathic effect	>10 µg/mL
Nc1ncnc2c1ccn2[C@@H]1O[C@H](CO)[C@@H](O)[C@H]1O	HeLa	TYPE B4	cytopathic effect	0.07 µg/mL
Cc1cn([C@H]2C[C@@H]3OC[C@H]2[C@@H]3CO)c(=O)[nH]c1=O	VERO	TYPE B4	cytopathic effect	>400 µg/mL
Nc1nccc2c1ncn2[C@@H]1C[C@H](CO)[C@@H](O)[C@H]1O	VERO	TYPE B4	cytopathic effect	7 µg/mL
Nc1ncnc2c1ccn2[C@H]1C[C@H](O)[C@@H](CO)O1	VERO	TYPE B4	cytopathic effect	40 µg/mL
Nc1nc2c(ncn2C[C@H]2CC[C@@H](CO)C2)c(=O)[nH]1	HeLa	TYPE B4	cytopathic effect	>200 µg/mL
Nc1nccc2c1ncn2[C@@H]1C[C@H](CO)[C@@H](O)[C@H]1O	HeLa	TYPE B4	cytopathic effect	>400 µg/mL
Nc1ncnc2c1c(Br)cn2[C@@H]1O[C@H](CO)[C@@H](O)[C@H]1O	VERO	TYPE B4	cytopathic effect	0.07 µg/mL
N#Cc1cn([C@H]2C[C@H](O)[C@@H](CO)O2)c2ncnc(N)c12	VERO	TYPE B4	cytopathic effect	>1 µg/mL
Nc1ncnc2c1ncn2[C@@H]1C[C@H](CO)[C@@H](O)C1	VERO	TYPE B4	cytopathic effect	>100 µg/mL
Cc1nc(C2CCCCCC2)c([N+](=O)[O-])c(N2CC[N+]3(CC2)CC[N+]2(CCN(c4nc(C)nc(C5CCCCCC5)c4[N+](=O)[O-])CC2)CC3)n1	HeLa	B3	cytopathic effect	>70 µg/mL
NC(=O)c1cn([C@H]2C[C@H](O)[C@@H](CO)O2)c2ncnc(N)c12	VERO	TYPE B4	cytopathic effect	2 µg/mL
Nc1ncnc2c1ncn2C[C@H](O)CO	HeLa	TYPE B4	cytopathic effect	>400 µg/mL
O=[N+]([O-])c1ccc(N2CC[N+]3(CC2)CC[N+]2(CCN(c4ccc([N+](=O)[O-])cc4[N+](=O)[O-])CC2)CC3)c([N+](=O)[O-])c1	HeLa	B3	cytopathic effect	>70 µg/mL
Nc1ncnc2c1ncn2C[C@H](O)CO	HeLa	TYPE B4	cytopathic effect	>400 µg/mL
Nc1ncnc2c1ccn2[C@@H]1O[C@H](CO)[C@@H](O)[C@H]1O	VERO	TYPE B4	cytopathic effect	0.07 µg/mL
O=c1[nH]c(=O)n([C@H]2C[C@H](O)[C@@H](CO)O2)cc1/C=C/Br	VERO	TYPE B4	cytopathic effect	>400 µg/mL
NC(=O)c1csc([C@@H]2O[C@H](CO)[C@@H](O)[C@H]2O)n1	HeLa	TYPE B4/JVB	cytopathic effect	86 µg/mL
Nc1nccc2c1ncn2[C@@H]1C[C@H](CO)[C@@H](O)[C@H]1O	HeLa	TYPE B4	cytopathic effect	>400 µg/mL
O=C1N(CCCCCOc2ccc(-c3ccc(Cl)cc3)cc2)CCN1c1ccncc1	RD	TYPE A24	plaque count	1.3 µM
NC(=O)c1cn([C@@H]2O[C@H](CO)[C@@H](O)[C@@H]2O)c2ncnc(N)c12	VERO	TYPE B4	cytopathic effect	2 µg/mL
Cc1cn([C@H]2C[C@@H](CO)[C@H](O)C2)c(=O)[nH]c1=O	VERO	TYPE B4	cytopathic effect	>400 µg/mL
O=[N+]([O-])c1c(C2CCCCCC2)ncnc1N1CC[N+]2(CC1)CC[N+]1(CCN(c3ncnc(C4CCCCCC4)c3[N+](=O)[O-])CC1)CC2	HeLa	B3	cytopathic effect	>70 µg/mL
Nc1nccc2c1ncn2[C@@H]1C[C@H](CO)[C@@H](O)[C@H]1O	HeLa	TYPE B4	cytopathic effect	>400 µg/mL
O=[N+]([O-])c1ccc(N2CC[N+]3(CC2)CC[N+]2(CCN(c4ccc([N+](=O)[O-])c5nonc45)CC2)CC3)c2nonc12	HeLa	B3	cytopathic effect	>70 µg/mL
CCOC(=O)C(CCSC[C@H]1O[C@@H](n2ccc3c(N)ncnc32)[C@H](O)[C@@H]1O)NC(=O)COC	VERO	TYPE B4	cytopathic effect	150 µg/mL
Cc1cn([C@H]2C[C@H](O)[C@@H](CO)[C@@H]2C)c(=O)[nH]c1=O	HeLa	TYPE B4	cytopathic effect	>400 µg/mL

Repeating the first 2 entries:

SMILES | cell line | strain | method | value
Nc1nc(N)c2nnn(C[C@H]3CC[C@@H](CO)C3)c2n1 | VERO | TYPE B4 | cytopathic effect | >100 µg/mL
Nc1ncnc2c1ncn2[C@@H]1C=C(CO)[C@@H](O)[C@H]1O | VERO | TYPE B4 | cytopathic effect | >10 µg/mL